Values from PubChem BioAssay AID624099 (ICCB-Longwood, 2012)
Aim: 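Human genes that papillomavirus E2 requires to repress the HPV18 LCR promoter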 (primary screen). System: human C33A cervical carcinoma cells (HPV-negative) stably expressing BPV1 E2 and an HPV18 LCR luciferase reporter. Reagent: siRNA pool against human genes, 40 nM. Time to read-out: 72 h. Detection: 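Per-well luciferase luminescence, z-scored on each plate against the plate mean and SD with control wells left out, then averaged across three replicate plates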. Reading the numbers: mean z-score and z-score: higher = stronger reporter signal, weaker E2 silencing. Call rule: 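Mean z ≥ 2 together with z ≥ 2 in two or more of the three replicates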.
Here is a random part of about 21,000 reagents tested. 497 of them (2.4%) count as active. 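Higher z means weaker E2 silencing; only reporter increases were scored, and knock-downs that hurt cell survival may mask genuine repressor factors.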 Entries without a mark were called inactive. Reagent sequences are not shown.

IDS (iduronate 2-sulfatase): mean z-score = 2.31 (active); z-score, replicate A = 2.5; z-score, replicate B = 2.17; z-score, replicate C = 2.26
BLTP3B (bridge-like lipid transfer protein family member 3B): mean z-score = 3.76 (active); z-score, replicate A = 3.97; z-score, replicate B = 3.07; z-score, replicate C = 4.23
SLC41A2: mean z-score = -0.05; z-score, replicate A = 0.13; z-score, replicate B = -0.14; z-score, replicate C = -0.13
LOC387783 (retired record): mean z-score = -0.08; z-score, replicate A = -0.17; z-score, replicate B = -0.16; z-score, replicate C = 0.08
UQCR10 (ubiquinol-cytochrome c reductase, complex III subunit X): mean z-score = -1.46; z-score, replicate A = -1.24; z-score, replicate B = -1.18; z-score, replicate C = -1.96
KIAA1217: mean z-score = 0.27; z-score, replicate A = 0.11; z-score, replicate B = 0.37; z-score, replicate C = 0.34
PRPS1 (phosphoribosyl pyrophosphate synthetase 1): mean z-score = 1.58; z-score, replicate A = 1.52; z-score, replicate B = 1.35; z-score, replicate C = 1.88
WFIKKN2: mean z-score = -1.07; z-score, replicate A = -1.39; z-score, replicate B = -1.2; z-score, replicate C = -0.63
LOC387927 (retired record): mean z-score = -0.25; z-score, replicate A = -0.56; z-score, replicate B = -0.05; z-score, replicate C = -0.13
HNRNPA1P70 (heterogeneous nuclear ribonucleoprotein A1 pseudogene 70): mean z-score = -1.16; z-score, replicate A = -1.33; z-score, replicate B = -1.33; z-score, replicate C = -0.82
KRTAP13-1 (keratin associated protein 13-1): mean z-score = -1.01; z-score, replicate A = -1.44; z-score, replicate B = -0.69; z-score, replicate C = -0.89
TSSK6 (testis specific serine kinase 6): mean z-score = -1.27; z-score, replicate A = -1.26; z-score, replicate B = -1.32; z-score, replicate C = -1.22
EPB42 (erythrocyte membrane protein band 4.2): mean z-score = 0.38; z-score, replicate A = 0.32; z-score, replicate B = 0.27; z-score, replicate C = 0.55
LOC83459 (retired record): mean z-score = 1.84; z-score, replicate A = 2; z-score, replicate B = 1.54; z-score, replicate C = 1.98

Limited to “mean z-score”, for 2 of the entries above:
BLTP3B (bridge-like lipid transfer protein family member 3B): 3.76 (active)
SLC41A2: -0.05
